Data as given in PubChem BioAssay AID1259414 (Drosophila RNAi Screening Center, 2018).
In all, the deposit lists about 24,000 reagents; shown is an unselected part of those that have a named target and a result. In the full data, about 1,210 (5%) were called active. 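Inactive calls also include excluded dsRNAs with several or no targets, genes unexpressed in JW18, and well A1, regardless of score.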 Names joined by + are all predicted targets of the reagent.

Test: 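Host factors increasing or decreasing Wolbachia levels in cultured fly cells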 (primary screen)
Cells: Drosophila JW18 cells infected with Wolbachia
Reagents: long dsRNA against Drosophila genes, 0.25 µg dsRNA per well of a 384-well plate
Time to read-out: 5 days
Treatment: cells persistently infected with Wolbachia before knock-down; no added drug
Measured: 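Imaged fluorescence in situ signal for Wolbachia 23S rRNA per DAPI-counted host cell, given as a robust z-score within each plate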
Scale: Wolbachia per cell robust z: higher = more Wolbachia per host cell than the plate typical
Hit rule: 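Active if absolute robust z reaches 1.5 in two or more of three replicates, leaving out multi- or no-target dsRNAs, genes unexpressed in JW18 and A1 wells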

predicted target	dsRNA	Wolbachia per cell robust z, rep 1	Wolbachia per cell robust z, rep 2	Wolbachia per cell robust z, rep 3	call
CG2617	DRSC02712	-1.24	1.31	1.32	inactive
CG2617	DRSC24947	0.765	-0.33	0.516	inactive
Tk	DRSC14954	0.676	1.27	-0.208	inactive
Tk	DRSC21972	0.676	-0.643	0.94	inactive
Tk	DRSC27140	0.307	0.387	1.11	inactive
cav	DRSC15995	0.392	0.664	1.09	inactive
cav	DRSC26206	-1.05	-1.12	0.0443	inactive
CG3868	DRSC10380	0.422	-1.11	-0.103	inactive
CG7974	DRSC08607	-0.657	-0.0245	-1.6	inactive
CG7974	DRSC26643	0.111	-1.18	-0.285	inactive
sns	DRSC07687	1.06	1.03	0.725	inactive
sns	DRSC07688	-2.43	-2	-1.68	active
sns	DRSC07689	0.599	-0.348	-0.535	inactive
sns	DRSC07691	-0.646	-0.601	0.877	inactive
eIF2Bdelta	DRSC04058	0.407	-0.299	-0.021	inactive
TwdlE	DRSC02392	-1.36	-0.426	0.957	inactive
TwdlE	DRSC24943	0.393	-0.175	0.497	inactive
CG14609	DRSC12553	-0.0647	0.0498	-0.413	inactive
CG30026	DRSC05276	-0.744	-0.399	0.754	inactive
CG30026	DRSC29320	-0.531	0.119	-0.954	inactive
PMP34	DRSC21939	-0.279	-0.298	-1.51	inactive
Ir94h	DRSC15232	0.224	0.474	0.29	inactive
Ugt302C1	DRSC15353	-0.902	-0.767	0.424	inactive
Ugt302C1	DRSC24517	-1.15	-0.829	-1.43	inactive
CG7402	DRSC10839	-0.702	-0.0728	0.772	inactive
l(1)G0004	DRSC20486	-0.178	1.82	0.478	inactive
Ugt37C2	DRSC02247	-1.23	-0.38	0.113	inactive
Plap	DRSC00678	0.374	-0.558	-0.265	inactive
beta4GalNAcTB	DRSC14869	0.339	-2.56	-4.35	inactive

Entries listed so far whose gene name begins with C or c (11):
predicted target	dsRNA	Wolbachia per cell robust z, rep 1	Wolbachia per cell robust z, rep 2	Wolbachia per cell robust z, rep 3	call
CG2617	DRSC02712	-1.24	1.31	1.32	inactive
CG2617	DRSC24947	0.765	-0.33	0.516	inactive
cav	DRSC15995	0.392	0.664	1.09	inactive
cav	DRSC26206	-1.05	-1.12	0.0443	inactive
CG3868	DRSC10380	0.422	-1.11	-0.103	inactive
CG7974	DRSC08607	-0.657	-0.0245	-1.6	inactive
CG7974	DRSC26643	0.111	-1.18	-0.285	inactive
CG14609	DRSC12553	-0.0647	0.0498	-0.413	inactive
CG30026	DRSC05276	-0.744	-0.399	0.754	inactive
CG30026	DRSC29320	-0.531	0.119	-0.954	inactive
CG7402	DRSC10839	-0.702	-0.0728	0.772	inactive

Next entries follow:
predicted target	dsRNA	Wolbachia per cell robust z, rep 1	Wolbachia per cell robust z, rep 2	Wolbachia per cell robust z, rep 3	call
Tfb5 + CG31917	DRSC02362	0.0302	0.99	0.951	inactive
Ir67b	DRSC09876	-1.01	-1.26	-0.0337	inactive
Plzf	DRSC02994	0.911	0.319	-0.492	inactive
Meics	DRSC11413	-1.93	-0.463	-0.721	inactive
Meics	DRSC29541	0.432	0.768	0.248	inactive
GrlHz	DRSC04424	-1.79	-0.0772	-3.38	active
CG12692	DRSC17881	1.23	0.599	-0.147	inactive
CG14377	DRSC14837	0.758	-0.213	0.404	inactive
CG14377	DRSC26342	1.66	1.23	0.845	inactive
CG34450	DRSC17822	0.463	-0.466	1.07	inactive
CG34450	DRSC25085	1.14	0.729	-1.14	inactive
Ube4A	DRSC02004	-6.45	0.356	1.26	inactive
CG3687	DRSC06850	-0.152	-1.7	-0.295	inactive
CG3687	DRSC29588	0.8	-0.203	0.00654	inactive
CG3687	DRSC39030	-0.869	-1.01	-3.42	inactive
CG33127	DRSC00011	-0.321	-0.727	-0.5	inactive
CG10333	DRSC02036	0.0628	1.53	0.566	inactive
CG10333	DRSC29270	-7.51	-0.785	0.413	inactive
CG10208	DRSC14211	-0.104	-0.701	-0.71	inactive
l(2)k01209	DRSC06889	0.292	0.365	0.361	inactive
l(2)k01209	DRSC29673	-0.581	-0.782	-0.112	inactive
Samtor	DRSC04390	-4.19	-1.15	-0.261	inactive
Samtor	DRSC24231	0.689	-0.02	0.593	inactive
mtt	DRSC05106	1.36	-0.258	1.12	inactive
mtt	DRSC05107	1.39	0.43	-0.519	inactive
mtt	DRSC06753	0.87	-1.02	0.419	inactive
mtt	DRSC07235	0.114	0.732	0.476	inactive
Cht6	DRSC18001	0.595	-4.62	1.2	inactive
Cht6	DRSC18253	0.361	0.564	-0.277	inactive
Cht6	DRSC23211	-1.37	0.271	1.08	inactive
Cht6	DRSC28095	-0.553	0.314	-0.783	inactive
Treh	DRSC04548	0.0387	1.07	0.196	inactive
Treh	DRSC28721	0.533	-0.544	0.268	inactive
LanB1	DRSC03360	0.481	0.145	0.38	inactive
LanB1	DRSC27259	-0.413	-0.696	-0.325	inactive
CG33181	DRSC17971	-0.106	0.277	-0.518	inactive
CG33181	DRSC22376	-0.739	1.12	0.851	inactive
CG33181	DRSC29457	0.707	0.0327	1.04	inactive
CG18094	DRSC02655	-0.503	-0.259	0.585	inactive
